# Key:
# [1] = Inhibition of HIV1 reverse transcriptase L100I mutant infected in human MT4 cells assessed as protection against virus-induced cytopathic effect by MTT assay
# [2] = Inhibition of HIV1 reverse transcriptase Y188L mutant infected in human MT4 cells assessed as protection against virus-induced cytopathic effect by MTT assay
# [3] = Inhibition of HIV1 reverse transcriptase K103N mutant infected in human MT4 cells assessed as protection against virus-induced cytopathic effect by MTT assay
# [4] = Inhibition of HIV1 reverse transcriptase Y181C mutant infected in human MT4 cells assessed as protection against virus-induced cytopathic effect by MTT assay
# [5] = Inhibition of HIV1 reverse transcriptase L100I/K103N double mutant infected in human MT4 cells assessed as protection against virus-induced cytopathic effect by MTT assay
# [6] = Inhibition of HIV1 reverse transcriptase K103N/Y188C double mutant infected in human MT4 cells assessed as protection against virus-induced cytopathic effect by MTT assay
structure (smiles),measurement,setting,value
Cc1cc(C#N)cc(C)c1Oc1nc(Nc2ccc(C#N)cc2)nc(N)c1Br,IC50,[1],3.3 nM
same,IC50,[2],4.6 nM
same,IC50,[3],1.2 nM
same,IC50,[4],7 nM
same,IC50,[5],19 nM
same,IC50,[6],4.3 nM
